Values quoted from earlier work in US20240026314A1, “POLYPEPTIDES FOR USE IN THE SYNTHESIS OF BIOACTIVE PHENOLIC COMPOUNDS” (priority 2020, published 2024).

What was measured:
[1] = test system: human leukemia cell line HL60; settings: HL60 (Akao et al 2008); cited from earlier work
[2] = test system: colon cancer cell line SW480; settings: SW480 (Akao et al 2008); cited from earlier work
sarcoma S-180 = settings: oral administration; mice with sarcoma S-180 (Mishima et al 2005); cited from earlier work

baccharin
apoptotic events [1]: induce apoptotic events | apoptotic events [2]: induce apoptotic events | tumor growth (sarcoma S-180): significant reduction in tumor growth
